Test results from patent publication US20160095865A1, “APPLICATION OF ENROFLOXACIN SALT IN PREPARATION OF ORAL PREPARATION FOR PIGS” (GUANGZHOU INSIGHTER BIOTECHNOLOGY CO., LTD., priority 2013, published 2016).
Where a name gives a salt, the structure may show the parent alone.

Columns and labels:
Type in all cases: in vivo
[1] = test system: duroc-landrace-yorkshire hybrid pigs; test: Influence of enrofloxacin base, sodium salt and hydrochloride on palatability of pig feed (Embodiment 2); details: for Total feed intake: 10 pigs, free feed intake after 12 h fast; for Average feed intake: per pig, after 12 h fast, control 1.289 kg
Protocol: Enrofloxacin base, enrofloxacin sodium and enrofloxacin hydrochloride were respectively added in feed in each group. All the test pigs were synchronously fasted for 12 h before testing. The test pigs in each group were respectively subjected to free feed intake of feed containing enrofloxacin in different forms after the 12 h fast. […] Feed consumption of different test groups was subjected to statistics and the influence of different forms of the enrofloxacin added in the feed on the feed intake of the pigs was evaluated. The pure feed which was not added with the enrofloxacin or the salt thereof was taken as control.

[2] = test system: duroc-landrace-yorkshire hybrid pigs; test: Dose research of influence of enrofloxacin copper on palatability of pig feed (Embodiment 5); details: for Average feed intake: after 12 h fast, control 1.358 ± 0.381 kg
[3] = test system: duroc-landrace-yorkshire hybrid pigs; test: Influence of long-term (7 days) application of enrofloxacin zinc, copper and silver on feed intake of pigs (Embodiment 7); details: 100 ppm in feed, 7 continuous days; for Total feed intake: 10 × 3 pigs, control 458.9 kg
[4] = test system: duroc-landrace-yorkshire hybrid pigs; test: Dose research of influence of enrofloxacin silver on palatability of pig feed (Embodiment 6); details: after 12 h fast, control 1.385 ± 0.406 kg
[5] = test system: duroc-landrace-yorkshire hybrid pigs; test: Dose research of influence of enrofloxacin zinc on palatability of pig feed (Embodiment 4); details: after 12 h fast, control 1.324 ± 0.315 kg
[6] = 5 ppm in feed (calculated by enrofloxacin)
[7] = 25 ppm in feed (calculated by enrofloxacin)
[8] = 100 ppm in feed (calculated by enrofloxacin)

With `CCN1CCN(c2cc3c(cc2F)c(=O)c(C(=O)O)cn3C2CC2)CC1` [enrofloxacin base, enrofloxacin] the Total feed intake [1, 6] was 6.81 kg, the Average feed intake ([1]; 5 ppm in feed) was 0.681 kg and the Total feed intake [1, 7] was 3.32 kg. The Average feed intake ([1]; 25 ppm in feed) was 0.332 kg, the Total feed intake [1, 8] was 0.86 kg and the Average feed intake ([1]; 100 ppm in feed) was 0.086 kg.

In the case of `CCN1CCN(c2cc3c(cc2F)c(=O)c(C(=O)[O-])cn3C2CC2)CC1.CCN1CCN(c2cc3c(cc2F)c(=O)c(C(=O)[O-])cn3C2CC2)CC1.[Cu+2]` [enrofloxacin copper], the Average feed intake ([2]; 100 ppm in feed) is reported as 1.355 ± 0.397^A kg, the Average feed intake ([2]; 250 ppm in feed) is reported as 1.369 ± 0.349^A kg and the Average feed intake ([2]; 500 ppm in feed) is reported as 1.352 ± 0.351^A kg. For the same molecule, the “Feed intake compared with control group (in words)” value ([2]; different doses (100-500 ppm) in feed) was “no significant difference”, the Total feed intake [3] was 463.5 kg and the “Average feed intake (average daily feed intake)” value ([3]; control […] ± 0.316 kg) was 2.207 ± 0.333^A kg.

Molecule `CCN1CCN(c2cc3c(cc2F)c(=O)c(C(=O)O)cn3C2CC2)CC1` [enrofloxacin hydrochloride] has a Total feed intake ([1]; 5 ppm in feed (calculated by enrofloxacin), hydrochloride) of 6.51 kg, an Average feed intake ([1]; 5 ppm in feed, hydrochloride) of 0.651 kg and a Total feed intake ([1]; 25 ppm in feed (calculated by enrofloxacin), hydrochloride) of 3.41 kg. For the same molecule, the Average feed intake ([1]; 25 ppm in feed, hydrochloride) was 0.341 kg, the Total feed intake ([1]; 100 ppm in feed (calculated by enrofloxacin), hydrochloride) was 0.81 kg and the Average feed intake ([1]; 100 ppm in feed, hydrochloride) was 0.081 kg.

`CCN1CCN(c2cc3c(cc2F)c(=O)c(C(=O)[O-])cn3C2CC2)CC1.[Ag+]` [enrofloxacin silver] was tested, and the Average feed intake ([4]; 100 ppm in feed) was 1.380 ± 0.416^A kg, the Average feed intake ([4]; 250 ppm in feed) was 1.389 ± 0.447^A kg and the Average feed intake ([4]; 500 ppm in feed) was 1.379 ± 0.388^A kg. It also gave a Total feed intake [3] of 460.1 kg.

In the case of `CCN1CCN(c2cc3c(cc2F)c(=O)c(C(=O)O)cn3C2CC2)CC1` [enrofloxacin sodium], the Total feed intake [1, 6] is reported as 6.34 kg, the Average feed intake ([1]; 5 ppm in feed) is reported as 0.634 kg and the Total feed intake [1, 7] is reported as 3.47 kg. It also gave an Average feed intake ([1]; 25 ppm in feed) of 0.347 kg, a Total feed intake [1, 8] of 0.76 kg and an Average feed intake ([1]; 100 ppm in feed) of 0.076 kg.

`CCN1CCN(c2cc3c(cc2F)c(=O)c(C(=O)[O-])cn3C2CC2)CC1.CCN1CCN(c2cc3c(cc2F)c(=O)c(C(=O)[O-])cn3C2CC2)CC1.[Zn+2]` [enrofloxacin zinc] was tested, and the Average feed intake ([5]; 100 ppm in feed) was 1.335 ± 0.342^A kg, the Average feed intake ([5]; 250 ppm in feed) was 1.319 ± 0.297^A kg and the Average feed intake ([5]; 500 ppm in feed) was 1.338 ± 0.259^A kg. For the same molecule, the Total feed intake [3] was 468.3 kg.
